Laboratory results taken from ChEMBL document CHEMBL5346973 (J Med Chem, 2023).

By UniProt entry, the sequences of proteins in these tests, tags left out. Where a name states a change or a piece, a line headed by the entry shows the natural chain unless it says otherwise.
UniProt P43144: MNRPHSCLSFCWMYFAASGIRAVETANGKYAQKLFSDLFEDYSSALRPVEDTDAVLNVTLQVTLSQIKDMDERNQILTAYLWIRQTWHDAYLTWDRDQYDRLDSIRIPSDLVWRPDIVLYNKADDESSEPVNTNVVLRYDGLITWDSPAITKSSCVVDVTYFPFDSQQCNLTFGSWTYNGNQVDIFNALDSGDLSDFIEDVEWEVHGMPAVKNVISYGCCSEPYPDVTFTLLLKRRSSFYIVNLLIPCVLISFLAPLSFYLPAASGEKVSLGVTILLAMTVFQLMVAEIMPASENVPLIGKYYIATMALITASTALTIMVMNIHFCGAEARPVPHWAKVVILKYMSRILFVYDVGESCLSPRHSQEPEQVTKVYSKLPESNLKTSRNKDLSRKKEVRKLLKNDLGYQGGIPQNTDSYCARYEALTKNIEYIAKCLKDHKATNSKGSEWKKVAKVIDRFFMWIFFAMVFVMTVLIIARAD
UniProt Q9JLB5: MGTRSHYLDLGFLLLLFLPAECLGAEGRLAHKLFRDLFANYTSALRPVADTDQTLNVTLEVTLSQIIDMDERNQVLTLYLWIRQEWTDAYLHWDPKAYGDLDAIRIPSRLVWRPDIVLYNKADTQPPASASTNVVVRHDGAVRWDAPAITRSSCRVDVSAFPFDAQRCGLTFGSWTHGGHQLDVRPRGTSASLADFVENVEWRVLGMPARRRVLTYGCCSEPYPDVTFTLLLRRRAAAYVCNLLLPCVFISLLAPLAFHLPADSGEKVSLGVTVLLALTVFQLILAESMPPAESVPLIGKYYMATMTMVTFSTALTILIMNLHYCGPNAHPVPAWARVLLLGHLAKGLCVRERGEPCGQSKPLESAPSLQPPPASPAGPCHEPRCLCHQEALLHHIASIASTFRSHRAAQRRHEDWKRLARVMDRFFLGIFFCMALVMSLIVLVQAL
UniProt Q05941, whole entry, looked up: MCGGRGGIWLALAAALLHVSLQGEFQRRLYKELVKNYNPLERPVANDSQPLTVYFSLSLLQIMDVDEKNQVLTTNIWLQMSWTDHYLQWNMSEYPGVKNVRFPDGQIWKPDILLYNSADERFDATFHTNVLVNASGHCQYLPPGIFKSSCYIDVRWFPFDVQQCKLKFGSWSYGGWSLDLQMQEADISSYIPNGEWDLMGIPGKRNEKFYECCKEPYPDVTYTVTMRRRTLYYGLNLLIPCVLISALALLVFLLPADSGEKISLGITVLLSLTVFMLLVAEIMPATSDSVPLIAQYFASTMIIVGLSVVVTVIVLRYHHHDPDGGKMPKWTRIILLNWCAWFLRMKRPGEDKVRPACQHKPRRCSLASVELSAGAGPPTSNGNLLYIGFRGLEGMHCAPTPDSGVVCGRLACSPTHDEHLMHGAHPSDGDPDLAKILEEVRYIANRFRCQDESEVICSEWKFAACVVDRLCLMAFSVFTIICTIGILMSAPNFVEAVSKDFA

Key:
[1] = biological target: Nicotinic acetylcholine receptor alpha9/alpha10 (Rattus norvegicus) (UniProt P43144+Q9JLB5); assay: Antagonist activity at rat alpha9alpha10 nACh receptor expressed in Xenopus oocyte assessed as inhibition of acetylcholine-induced response at -70 mV holding potential by measuring ratio of IC50 by voltage-clamp based electrophysiological assay relative to GeXIVA; type: cell-based; settings: filed as antagonist
Rattus norvegicus = organism: Rattus norvegicus; assay: Selectivity ratio of IC50 for rat alpha7 nACh receptor to IC50 for rat alpha9alpha10 nACh receptor
[2] = biological target: Neuronal acetylcholine receptor subunit alpha-7 (Rattus norvegicus) (UniProt Q05941); assay: Antagonist activity at rat alpha7 nACh receptor expressed in Xenopus oocyte assessed as inhibition of acetylcholine-induced response at -70 mV holding potential by measuring ratio of IC50 by voltage-clamp based electrophysiological assay relative to GeXIVA; settings: filed as antagonist

Question: For `CC(C)[C@H](NC(=O)[C@@H]1CSSC[C@H](NC(=O)[C@H](Cc2ccc(O)cc2)NC(=O)[C@H](CCCNC(=N)N)NC(=O)[C@H](CCCNC(=N)N)NC(=O)[C@H](CCCNC(=N)N)NC(=O)[C@H](CCCNC(=N)N)NC(=O)[C@H](CC(=O)O)NC(=O)[C@H](Cc2ccc(O)cc2)NC(=O)[C@@H]2CCCN2C(=O)[C@H](CO)NC(=O)[C@H](CCCNC(=N)N)NC(=O)[C@@H]2CSSC[C@H](NC(=O)[C@@H](N)[C@@H](C)O)C(=O)N[C@@H](CCCNC(=N)N)C(=O)N[C@@H](CO)C(=O)N[C@@H](CO)C(=O)NCC(=O)N[C@@H](CCCNC(=N)N)C(=O)N[C@@H](Cc3ccc(O)cc3)C(=O)N2)C(=O)N[C@@H](CCCNC(=N)N)C(=O)N[C@@H](CCCNC(=N)N)C(=O)N[C@@H](C)C(=O)N[C@@H]([C@@H](C)O)C(=O)N[C@@H](CC(=O)O)C(=O)N[C@@H](C)C(=O)N1)C(=O)O`, which Ratio IC50 [1] is on record?
Answer: 1.3

Question: And the Ratio IC50 (Rattus norvegicus)?
Answer: 88.7

Question: What about the Ratio IC50 [2] of the same molecule?
Answer: 2.2

Question: How did the Ratio IC50 [1] turn out when `CC[C@H](C)[C@@H]1NC(=O)[C@H](CCCNC(=N)N)NC(=O)[C@H](CCCNC(=N)N)NC(=O)[C@@H](NC(=O)[C@H](Cc2ccc(O)cc2)NC(=O)[C@H](CCCNC(=N)N)NC(=O)[C@H](CCCNC(=N)N)NC(=O)[C@H](C)NC(=O)[C@H](CCCNC(=N)N)NC(=O)[C@H](CC(=O)O)NC(=O)[C@H](Cc2ccc(O)cc2)NC(=O)[C@@H]2CCCN2C(=O)[C@H](CO)NC(=O)[C@H](CCCNC(=N)N)NC(=O)[C@@H]2CSSC[C@H](NC(=O)[C@@H](N)[C@@H](C)O)C(=O)N[C@@H](CCCNC(=N)N)C(=O)N[C@@H](CO)C(=O)N[C@@H](CO)C(=O)NCC(=O)N[C@@H](CCCNC(=N)N)C(=O)N[C@@H](Cc3ccc(O)cc3)C(=O)N2)CSSC[C@@H](C(=O)N[C@H](C(=O)O)C(C)C)NC(=O)[C@H](C)NC(=O)[C@H](CC(=O)O)NC(=O)[C@H]([C@@H](C)O)NC1=O` was run?
Answer: 1.5

Question: What about the Ratio IC50 (Rattus norvegicus) of the same molecule?
Answer: 168

Question: And the Ratio IC50 [2]?
Answer: 4.7

Question: For `CC[C@H](C)[C@@H]1NC(=O)[C@H](CCCNC(=N)N)NC(=O)[C@H](CCCNC(=N)N)NC(=O)[C@@H](NC(=O)[C@H](Cc2ccc(O)cc2)NC(=O)[C@H](CCCNC(=N)N)NC(=O)[C@H](CCCNC(=N)N)NC(=O)[C@H](CCCNC(=N)N)NC(=O)[C@H](CCCNC(=N)N)NC(=O)[C@H](CC(=O)O)NC(=O)[C@H](Cc2ccc(O)cc2)NC(=O)[C@@H]2CCCN2C(=O)[C@H](CO)NC(=O)[C@H](CCCNC(=N)N)NC(=O)[C@@H]2CSSC[C@H](NC(=O)[C@@H](N)[C@@H](C)O)C(=O)N[C@@H](CCCNC(=N)N)C(=O)N[C@@H](CO)C(=O)N[C@@H](CO)C(=O)NCC(=O)N[C@@H](CCCNC(=N)N)C(=O)N[C@@H](Cc3ccc(O)cc3)C(=O)N2)CSSC[C@@H](C(=O)N[C@@H](C)C(=O)O)NC(=O)[C@H](C)NC(=O)[C@H](CC(=O)O)NC(=O)[C@H]([C@@H](C)O)NC1=O`, which Ratio IC50 [1] is on record?
Answer: 1.2

Question: What about the Ratio IC50 (Rattus norvegicus) of the same molecule?
Answer: 50.1

Question: And the Ratio IC50 [2]?
Answer: 1.2

Question: For `CC[C@H](C)[C@@H]1NC(=O)[C@H](CCCNC(=N)N)NC(=O)[C@H](CCCNC(=N)N)NC(=O)[C@@H]2CSSC[C@H](NC(=O)[C@H](Cc3ccc(O)cc3)NC(=O)[C@H](CCCNC(=N)N)NC(=O)CNC(=O)[C@H](CO)NC(=O)[C@H](CO)NC(=O)[C@H](CCCNC(=N)N)NC(=O)[C@@H](NC(=O)[C@@H](N)[C@@H](C)O)CSSC[C@@H](C(=O)N[C@H](C(=O)O)C(C)C)NC(=O)[C@H](C)NC(=O)[C@H](CC(=O)O)NC(=O)[C@H]([C@@H](C)O)NC1=O)C(=O)N[C@@H](CCCNC(=N)N)C(=O)N[C@@H](CO)C(=O)N1CCC[C@H]1C(=O)N[C@@H](Cc1ccc(O)cc1)C(=O)N[C@@H](C)C(=O)N[C@@H](CCCNC(=N)N)C(=O)N[C@@H](CCCNC(=N)N)C(=O)N[C@@H](CCCNC(=N)N)C(=O)N[C@@H](CCCNC(=N)N)C(=O)N[C@@H](Cc1ccc(O)cc1)C(=O)N2`, which Ratio IC50 [1] is on record?
Answer: 0.3

Question: What about the Ratio IC50 (Rattus norvegicus) of the same molecule?
Answer: 1620

Question: What about the Ratio IC50 [2] of the same molecule?
Answer: 2.7

Question: Which Ratio IC50 [1] does the source give for `CC[C@H](C)[C@@H]1NC(=O)[C@H](CCCNC(=N)N)NC(=O)[C@H](CCCNC(=N)N)NC(=O)[C@@H](NC(=O)[C@H](Cc2ccc(O)cc2)NC(=O)[C@H](CCCNC(=N)N)NC(=O)[C@H](CCCNC(=N)N)NC(=O)[C@H](CCCNC(=N)N)NC(=O)[C@H](CCCNC(=N)N)NC(=O)[C@H](CC(=O)O)NC(=O)[C@H](Cc2ccc(O)cc2)NC(=O)[C@@H]2CCCN2C(=O)[C@@H](CO)NC(=O)[C@H](C)NC(=O)[C@@H]2CSSC[C@H](NC(=O)[C@@H](N)[C@@H](C)O)C(=O)N[C@@H](CCCNC(=N)N)C(=O)N[C@@H](CO)C(=O)N[C@@H](CO)C(=O)NCC(=O)N[C@@H](CCCNC(=N)N)C(=O)N[C@@H](Cc3ccc(O)cc3)C(=O)N2)CSSC[C@@H](C(=O)N[C@H](C(=O)O)C(C)C)NC(=O)[C@H](C)NC(=O)[C@H](CC(=O)O)NC(=O)[C@H]([C@@H](C)O)NC1=O` here?
Answer: 5.9

Question: And the Ratio IC50 (Rattus norvegicus)?
Answer: 43.4

Question: And the Ratio IC50 [2]?
Answer: 4.7

Question: How did the Ratio IC50 [1] turn out when `CC[C@H](C)[C@@H]1NC(=O)[C@H](CCCNC(=N)N)NC(=O)[C@H](CCCNC(=N)N)NC(=O)[C@@H](NC(=O)[C@H](Cc2ccc(O)cc2)NC(=O)[C@H](CCCNC(=N)N)NC(=O)[C@H](CCCNC(=N)N)NC(=O)[C@H](CCCNC(=N)N)NC(=O)[C@H](CCCNC(=N)N)NC(=O)[C@H](CC(=O)O)NC(=O)[C@H](Cc2ccc(O)cc2)NC(=O)[C@H](C)NC(=O)[C@H](CO)NC(=O)[C@H](CCCNC(=N)N)NC(=O)[C@@H]2CSSC[C@H](NC(=O)[C@@H](N)[C@@H](C)O)C(=O)N[C@H](CCCNC(=N)N)C(=O)N[C@@H](CO)C(=O)N[C@@H](CO)C(=O)NCC(=O)N[C@@H](CCCNC(=N)N)C(=O)N[C@@H](Cc3ccc(O)cc3)C(=O)N2)CSSC[C@@H](C(=O)N[C@H](C(=O)O)C(C)C)NC(=O)[C@H](C)NC(=O)[C@H](CC(=O)O)NC(=O)[C@H]([C@@H](C)O)NC1=O` was run?
Answer: 1.3

Question: What about the Ratio IC50 (Rattus norvegicus) of the same molecule?
Answer: 56.9

Question: And the Ratio IC50 [2]?
Answer: 1.4

Question: Which results are given for `CC[C@H](C)[C@@H]1NC(=O)[C@H](CCCNC(=N)N)NC(=O)[C@H](C)NC(=O)[C@@H](NC(=O)[C@H](Cc2ccc(O)cc2)NC(=O)[C@H](CCCNC(=N)N)NC(=O)[C@H](CCCNC(=N)N)NC(=O)[C@H](CCCNC(=N)N)NC(=O)[C@H](CCCNC(=N)N)NC(=O)[C@H](CC(=O)O)NC(=O)[C@H](Cc2ccc(O)cc2)NC(=O)[C@@H]2CCCN2C(=O)[C@H](CO)NC(=O)[C@H](CCCNC(=N)N)NC(=O)[C@@H]2CSSC[C@H](NC(=O)[C@@H](N)[C@@H](C)O)C(=O)N[C@@H](CCCNC(=N)N)C(=O)N[C@@H](CO)C(=O)N[C@@H](CO)C(=O)NCC(=O)N[C@@H](CCCNC(=N)N)C(=O)N[C@@H](Cc3ccc(O)cc3)C(=O)N2)CSSC[C@@H](C(=O)N[C@H](C(=O)O)C(C)C)NC(=O)[C@H](C)NC(=O)[C@H](CC(=O)O)NC(=O)[C@H]([C@@H](C)O)NC1=O`?
Answer: Ratio IC50 [1]: 1.2; Ratio IC50 (Rattus norvegicus): 77.1; Ratio IC50 [2]: 1.7

Question: What does the source list for `CC[C@H](C)[C@@H]1NC(=O)[C@H](CCCNC(=N)N)NC(=O)[C@H](CCCNC(=N)N)NC(=O)[C@@H]2CSSC[C@H](NC(=O)[C@H](Cc3ccc(O)cc3)NC(=O)[C@H](CCCNC(=N)N)NC(=O)CNC(=O)[C@H](C)NC(=O)[C@H](CO)NC(=O)[C@H](CCCNC(=N)N)NC(=O)[C@@H](NC(=O)[C@@H](N)[C@@H](C)O)CSSC[C@@H](C(=O)N[C@H](C(=O)O)C(C)C)NC(=O)[C@H](C)NC(=O)[C@H](CC(=O)O)NC(=O)[C@H]([C@@H](C)O)NC1=O)C(=O)N[C@@H](CCCNC(=N)N)C(=O)N[C@@H](CO)C(=O)N1CCC[C@H]1C(=O)N[C@@H](Cc1ccc(O)cc1)C(=O)N[C@@H](CC(=O)O)C(=O)N[C@@H](CCCNC(=N)N)C(=O)N[C@@H](CCCNC(=N)N)C(=O)N[C@@H](CCCNC(=N)N)C(=O)N[C@@H](CCCNC(=N)N)C(=O)N[C@@H](Cc1ccc(O)cc1)C(=O)N2`?
Answer: Ratio IC50 [1]: 3.7; Ratio IC50 (Rattus norvegicus): 106; Ratio IC50 [2]: 2.2

Question: For `CC[C@H](C)[C@@H]1NC(=O)[C@H](CCCNC(=N)N)NC(=O)[C@H](CCCNC(=N)N)NC(=O)[C@@H](NC(=O)[C@H](Cc2ccc(O)cc2)NC(=O)[C@H](CCCNC(=N)N)NC(=O)[C@H](CCCNC(=N)N)NC(=O)[C@H](CCCNC(=N)N)NC(=O)[C@H](CCCNC(=N)N)NC(=O)[C@H](CC(=O)O)NC(=O)[C@H](Cc2ccc(O)cc2)NC(=O)[C@@H]2CCCN2C(=O)[C@H](CO)NC(=O)[C@H](CCCNC(=N)N)NC(=O)[C@@H]2CSSC[C@H](NC(=O)[C@@H](N)[C@@H](C)O)C(=O)N[C@@H](CCCNC(=N)N)C(=O)N[C@@H](CO)C(=O)N[C@@H](CO)C(=O)NCC(=O)N[C@@H](CCCNC(=N)N)C(=O)N[C@@H](Cc3ccc(O)cc3)C(=O)N2)CSSC[C@@H](C(=O)N[C@H](C(=O)O)C(C)C)NC(=O)[C@H](C)NC(=O)[C@H](CC(=O)O)NC(=O)[C@H](C)NC1=O`, which Ratio IC50 [1] is on record?
Answer: 1.7

Question: And the Ratio IC50 (Rattus norvegicus)?
Answer: 98.1

Question: What about the Ratio IC50 [2] of the same molecule?
Answer: 3.2

Question: How did the Ratio IC50 [1] turn out when `CC[C@H](C)[C@@H]1NC(=O)[C@H](CCCNC(=N)N)NC(=O)[C@H](CCCNC(=N)N)NC(=O)[C@@H]2CSSC[C@H](NC(=O)[C@H](Cc3ccc(O)cc3)NC(=O)[C@H](CCCNC(=N)N)NC(=O)CNC(=O)[C@H](CO)NC(=O)[C@H](CO)NC(=O)[C@H](CCCNC(=N)N)NC(=O)[C@@H](NC(=O)[C@H](C)N)CSSC[C@@H](C(=O)N[C@H](C(=O)O)C(C)C)NC(=O)[C@H](C)NC(=O)[C@H](C)NC(=O)[C@H]([C@@H](C)O)NC1=O)C(=O)N[C@@H](CCCNC(=N)N)C(=O)N[C@@H](CO)C(=O)N1CCC[C@H]1C(=O)N[C@@H](Cc1ccc(O)cc1)C(=O)N[C@@H](CC(=O)O)C(=O)N[C@@H](CCCNC(=N)N)C(=O)N[C@@H](CCCNC(=N)N)C(=O)N[C@@H](CCCNC(=N)N)C(=O)N[C@@H](CCCNC(=N)N)C(=O)N[C@@H](Cc1ccc(O)cc1)C(=O)N2` was run?
Answer: 1.7

Question: What about the Ratio IC50 (Rattus norvegicus) of the same molecule?
Answer: 218

Question: And the Ratio IC50 [2]?
Answer: 2.1
